Laboratory results reported in PMC10516667, “Structures and implications of the C962R protein of African swine fever virus” (2023).

Target: full-length C962R protein (African swine fever virus, UniProt A0A0C5B022)
Details: Mg2+, 32-nt poly(T) ssDNA, BS3 crosslinked, pH 7.5; SF3 helicase ATP site, between neighbouring monomers

Structure (SMILES): Nc1ncnc2c1ncn2[C@@H]1O[C@H](COP(=O)(O)OP(=O)(O)NP(=O)(O)O)[C@@H](O)[C@H]1O
- cryo-EM structure of C962R-DNA-AMPPNP complex: six AMPPNP molecules were captured by the C962R hexamer

This is a selection: effects in other tests are not listed, and their absence says nothing.
